According to article PMC2908543, “Uropathogenic Escherichia coli Modulates Immune Responses and Its Curli Fimbriae Interact with the Antimicrobial Peptide LL-37” (PLoS Pathogens, 2010):

Test system: CsgA
Test: CD spectroscopy of CsgA
Parameters: species or system Escherichia coli
Settings: 40 µM CsgA with 10 µM LL-37, 50 mM KPi, 0.02% NaN3, pH 7.2, 60 h at 37°C, 190 to 250 nm, spectrum at 20°C
Protocol: Samples containing 40 µM CsgA in 50 mM potassium phosphate buffer (KPi) and 0.02% NaN3, pH 7.2, with and without 10 µM LL-37 were incubated for 60 h at 37°C. The samples were then assayed with a Jasco J-810 spectropolarimeter from 190 to 250 nm in a quartz cell with a 1-mm path length at 20°C. The spectrum of buffer alone and LL-37 in buffer was subtracted from the spectra for CsgA alone and for CsgA together with LL-37, respectively.

CC[C@H](C)[C@H](NC(=O)[C@H](CCCCN)NC(=O)[C@H](CCC(=O)O)NC(=O)[C@H](CCCCN)NC(=O)[C@H](CO)NC(=O)[C@H](CCCCN)NC(=O)[C@H](CCCNC(=N)N)NC(=O)[C@H](Cc1ccccc1)NC(=O)[C@H](Cc1ccccc1)NC(=O)[C@H](CC(=O)O)NC(=O)CNC(=O)[C@H](CC(C)C)NC(=O)[C@@H](N)CC(C)C)C(=O)NCC(=O)N[C@@H](CCCCN)C(=O)N[C@@H](CCC(=O)O)C(=O)N[C@@H](Cc1ccccc1)C(=O)N[C@@H](CCCCN)C(=O)N[C@@H](CCCNC(=N)N)C(=O)N[C@H](C(=O)N[C@H](C(=O)N[C@@H](CCC(N)=O)C(=O)N[C@@H](CCCNC(=N)N)C(=O)N[C@H](C(=O)N[C@@H](CCCCN)C(=O)N[C@@H](CC(=O)O)C(=O)N[C@@H](Cc1ccccc1)C(=O)N[C@@H](CC(C)C)C(=O)N[C@@H](CCCNC(=N)N)C(=O)N[C@@H](CC(N)=O)C(=O)N[C@@H](CC(C)C)C(=O)N[C@H](C(=O)N1CCC[C@H]1C(=O)N[C@@H](CCCNC(=N)N)C(=O)N[C@H](C(=O)N[C@@H](CCC(=O)O)C(=O)N[C@@H](CO)C(=O)O)[C@@H](C)O)C(C)C)[C@@H](C)CC)C(C)C)[C@@H](C)CC [LL-37]
structure of CsgA in presence of LL-37 (CD): unstructured, random coil structure
